Source: patent publication US8366935B2, “Phyllanthus extract” (Phytrix Inc., priority 2008, dated 2013)

Biological target: T1, gp120 (Human immunodeficiency virus type 1 group M subtype B, UniProt P03375)
T1 construct: loaded with 25 μl of 6 mg/ml of gp120 (25 μM) in PBS pH 7.2
Format: binding, HIV
Settings: micro-equilibrium dialysis, PBS pH 7.2, 12 hrs at 23° C.; average and deviation of five repetitions
Method: If needed, experiments were repeated within a smaller concentration range (i.e., 10 trials from 0.01 to 0.10 mmol). A total volume of either 50 μl was used in each analysis. Analytes were loaded in the opposite side of the membrane and equilibrium was obtained after incubation of 12 hrs at 23° C. The association constants were determined by non-linear regression analysis. Concentrations of compounds analysed were determined by HPLC analysis by comparison against an internal control (diethyl-7-dimethylaminocoumarineacetamide). HPLC controls were run with an equimolar amount of control and analyte. The relative concentrations of each analyte were determined at both sides of the membrane. […] Each data point was recollected after regeneration of the dialysis setup by exposing the non-protein containing face of the membrane to 5 ml of PBS pH 7.2 twice for 4 to 10 hrs at 23° C.

Phyllanthusiin E gave a Kd of 22.1 ± 1.2 µM.
